Measured values from several laboratories, pooled; numbers as filed in NIAID ChemDB.

Shared fields: cytotoxicity tests; cells: PBMC; endpoint: CC50

Two numbers with a dash give a range or band. CCn is the concentration with n% toxicity to the cells. Lines come from different laboratories, so protocols vary.

| structure | result |
|---|---|
| CC(C)(C)Oc1ccc(S(=O)(=O)NCCc2ccc3c(n2)NCCC3)cc1 | 4.9 µM |
| COc1cc2ccnc3c2c(c1OS(=O)(=O)c1ccccc1)N(C)C=C3 | 10.4 µM |
| COc1ccc2c(c1)CCN(c1nn3c(C)nnc3c3ccccc13)C2 | 10 µM |
| C[Si](O)(O[Si](C)(CCCn1cnc2c(N)ncnc21)c1ccccc1)c1ccccc1 | 80 µM |
| CCCCCCCCCCCC(=O)Nc1nc(N)nc2c1ncn2[C@H]1CO[C@@H](COP(=O)(N[C@@H](C)C(=O)OCC)Oc2ccccc2)O1 | 14 µM |
| Cc1cn([C@H]2O[C@@H](CO)CC2(F)F)c(=O)[nH]c1=O | >100 µM |
| O=C(CN1c2c(-c3ccccc3)n[nH]c2-c2ccccc2S1(=O)=O)N/N=C/c1ccccc1[N+](=O)[O-] | 47.8 µM |
| CCC[n+]1ccc2cc(OC)c(OC)c3c2c1C=CN3 | 1.4 µM |
| Nc1ccn([C@@H]2O[C@H](CO)C=C2F)c(=O)n1 | 7.3 µM |
| Nc1cc2c(c(N3CCOCC3)c1)CCN(c1nn3c(C4CC4)nnc3c3ccccc13)C2 | 13.4 µM |
| Nc1nccc2c1ncn2[C@@H]1C[C@H](CO)[C@@H](O)[C@H]1O | 9.99 µM |
| CN1c2c(-c3ccccc3)nn(CC(=O)N/N=C/c3cccc([N+](=O)[O-])c3)c2-c2ccccc2S1(=O)=O | >100 µM |
| CCCCCCCCCCCN1C=Cc2cc(OC)c(O)c3c2c1cc[n+]3CCCCCCCCCCC | 3.3 µM |
| Nc1ncnc2c1ncn2[C@@H]1O[C@@H](CO)[C@H](O)C1(F)F | >100 µM |
| Nc1nc(=O)n([C@H]2O[C@@H](CO)C=C2F)cc1F | >100 µM |
| CCCCCCCCCC(=O)Nc1nc(N)nc2c1ncn2[C@H]1CO[C@@H](COP(=O)(N[C@@H](C)C(=O)OCC)Oc2ccccc2)O1 | 67 µM |
| CCc1c(Cc2ccccc2)nc(SCSC)[nH]c1=O | >100 µM |
| CN(C)CCSc1nc(-c2ccccc2)c2ccccc2n1 | 100 µM |
| O=C(Cc1ccccc1)NCCc1ccc2c(n1)NCCC2 | 12 µM |
| Nc1nc(=O)n([C@@H]2C=C[C@H](CO)O2)cc1F | >100 µM |
| CC(C)(C)[Si](C)(C)O[C@H]1[C@H](CO)O[C@H](n2ccc(N)nc2=O)C1(F)F | >100 µM |
| CCOCn1c(Cc2ccccc2)c(C(C)C)c(=O)[nH]c1=O | >100 µM |
| COc1cc2cc[n+](C)c3c2c(c1OC)NC=C3 | 31.6 µM |
| CCCCCCCCCCCCCCCC(=O)Nc1nc(N)nc2c1ncn2[C@H]1CO[C@@H](COP(=O)(N[C@@H](C)C(=O)OCC)Oc2ccccc2)O1 | 7.9 µM |
| O=c1ccn([C@H]2O[C@@H](CO)C=C2F)c(=O)[nH]1 | >100 µM |
| O=c1[nH]c(=O)n([C@@H]2O[C@@H](CO)CC2(F)F)cc1I | >100 µM |
| Nc1ccn([C@@H]2C=C(F)[C@H](CO)O2)c(=O)n1 | 86.9 µM |
| CCCCCCCCCCCCN1C=Cc2cc(OC)c(OC)c3c2c1cc[n+]3CCCCCCCCCCCC | <1 µM |
| CN(C)c1ccc(/C=N/NC(=O)CN2c3c(-c4ccccc4)n[nH]c3-c3ccccc3S2(=O)=O)cc1 | >100 µM |
| CN(C)c1ccc(/C=N/NC(=O)Cn2nc(-c3ccccc3)c3c2-c2ccccc2S(=O)(=O)N3C)cc1 | 14.4 µM |
| Nc1nc(F)nc2c1ncn2[C@@H]1O[C@@H](CO)C=C1F | >100 µM |
| FC(F)(F)c1ccc2c(c1)CN(c1nn3c(C4CC4)nnc3c3ccccc13)CC2 | 5.06 µM |
| Cc1cnc(SCCN2CCN(C)CC2)nc1-c1cc2ccccc2s1 | 10 µM |
| O=C(NCCc1nccc(-n2ccnc2)n1)NCc1ccc(Cl)c(Cl)c1 | 50 µM |
| O=c1[nH]c(=O)n([C@H]2O[C@@H](CO)CC2(F)F)cc1F | >100 µM |
| O=C(CN1c2c(-c3ccccc3)n[nH]c2-c2ccccc2S1(=O)=O)N/N=C/c1c(Cl)cccc1Cl | 12.9 µM |
| CN(C)CCNc1nccc(-c2nccs2)n1 | 100 µM |
| Cc1cn([C@H]2O[C@@H](CO)C=C2F)c(=O)[nH]c1=O | >100 µM |
| CN1c2c(-c3ccccc3)nn(CC(=O)N/N=C/c3ccccc3Br)c2-c2ccccc2S1(=O)=O | >100 µM |
| Cc1ccc(-c2cccc(-c3ccc(CNCCN(C)C)cc3)n2)cc1 | 10 µM |
| CC(C)(C)C(=O)OCOP(=O)(CC[C@H]1O[C@@H](n2cnc3c(N)ncnc32)[C@](C)(F)[C@@H]1O)OCOC(=O)C(C)(C)C | >100 µM |
| CCOC(=O)N[C@H](C(=O)N[C@@H](Cc1ccccc1)[C@H]1O[C@H]1CC(=O)NC(C(C)C)C(C)C)C(C)(C)S(C)(=O)=O | >10 µM |
| Cc1c(-c2c([C@H](OC(C)(C)C)C(=O)O)cnc3ccccc23)cc(F)c2c1CCCO2 | 116 µM |
| O=c1ccn([C@@H]2O[C@@H](CO)C=C2F)c(=O)[nH]1 | >100 µM |
| COc1cc2c3c(cc[n+](C)c3c1OC)NC=C2 | 21.2 µM |
| Nc1ncnc2c1ncn2[C@H]1O[C@@H](CO)[C@H](O)C1(F)F | >100 µM |
| CS(=O)(=O)Nc1ccc2c(c1)CN(c1nn3c(C4CC4)nnc3c3ccccc13)CC2 | 1.78 µM |
| O=c1[nH]cnc2c1ncn2[C@@H]1O[C@@H](CO)C=C1F | >100 µM |
| CCCCCCCC(=O)Nc1nc(N)nc2c1ncn2[C@H]1CO[C@@H](COP(=O)(N[C@@H](C)C(=O)OCC)Oc2ccccc2)O1 | >100 µM |
| CC(C)CC(=O)N[C@H](C(=O)N[C@@H](Cc1ccccc1)[C@H]1O[C@H]1CC(=O)NC(Cc1ccccc1)C(C)C)C(C)(C)S(C)(=O)=O | >10 µM |
| CCOC(=O)[C@H](C)NP(=O)(OC[C@@H]1OC[C@H](n2cnc3c(N)nc(N)nc32)O1)Oc1ccccc1 | 67 µM |
| CCCCN1C=Cc2nccc3cc(OC)c(OC)c1c23 | 3.2 µM |
| Nc1nccc2c1ncn2[C@@H]1O[C@H](CO)[C@@H](O)[C@H]1O | 9.98 µM |
| CN(C)CCNCc1ccc(-c2cccc(-c3ccc(CNCCN(C)C)cc3)n2)cc1 | 10 µM |
| CN1c2c(-c3ccccc3)nn(CC(=O)N/N=C/c3cccc(Br)c3)c2-c2ccccc2S1(=O)=O | 31.8 µM |
| COc1cc2c(cc1N)CN(c1nn3c(C4CC4)nnc3c3ccccc13)CC2 | 9.13–13 µM |
| CC(=O)N[C@H]1[C@@H](OP(=O)(O)OP(=O)(O)OC[C@H]2O[C@@H](n3ccc(=O)[nH]c3=O)C[C@@H]2N=[N+]=[N-])O[C@H](CO)[C@@H](O)[C@@H]1O | 100 µM |
| CC(C)C(Cc1ccccc1)NC(=O)C[C@@H]1O[C@@H]1[C@H](Cc1ccccc1)NC(=O)[C@@H](NC(=O)Cc1ccsc1)C(C)(C)S(C)(=O)=O | >10 µM |
| Nc1nc(=O)n([C@H]2O[C@@H](CO)CC2(F)F)cc1F | >100 µM |
| COc1cc(/C=N/NC(=O)Cn2nc(-c3ccccc3)c3c2-c2ccccc2S(=O)(=O)N3C)cc(OC)c1OC | >100 µM |
| O=C(CN1c2c(-c3ccccc3)n[nH]c2-c2ccccc2S1(=O)=O)N/N=C/c1ccc(Br)cc1 | 13 µM |
| O=c1ccn([C@@H]2O[C@@H](CO)CC2(F)F)c(=O)[nH]1 | >100 µM |
| COc1cccc(NC(=O)NCCc2ccc3c(n2)NCCC3)c1 | 5 µM |
| Nc1ccc2c(c1)CN(c1nn3c(C4CC4)nnc3c3ccccc13)CC2 | 22.1 µM |
| CCOc1cc(/C=N/NC(=O)Cn2nc(-c3ccccc3)c3c2-c2ccccc2S(=O)(=O)N3C)ccc1O | 8.7 µM |
| CC(C)C(Cc1ccccc1)NC(=O)C[C@@H]1O[C@@H]1[C@H](Cc1ccccc1)NC(=O)[C@@H](NC(=O)OC1CCCC1)C(C)(C)S(C)(=O)=O | >10 µM |
| CN1c2c(-c3ccccc3)nn(CC(=O)N/N=C/c3ccc(Br)cc3)c2-c2ccccc2S1(=O)=O | 97 µM |
| Cc1nnc2c3ccccc3c(N3CCc4cccnc4C3)nn12 | 3.19 µM |
| CC[C@@]1(O)C(=O)OCc2c1cc1n(c2=O)Cc2cc3c(CN(C)C)c(O)ccc3nc2-1 | >0.125 µM |
| Nc1ncnc2c1ncn2[C@@H]1CC[C@H](CO)O1 | >100 µM |
| Nc1ccn([C@H]2S[C@@H](CO)C=C2F)c(=O)n1 | >100 µM |
| COc1ccc2c(c1)CN(c1nn3c(C(C)C)nnc3c3ccccc13)CC2 | 23.4 µM |
| CC(C)(C)[Si](C)(C)O[C@H]1[C@H](CO)O[C@@H](n2ccc(N)nc2=O)C1(F)F | >100 µM |

Repeating the final 4 entries:

structure,result
Nc1ncnc2c1ncn2[C@@H]1CC[C@H](CO)O1,>100 µM
Nc1ccn([C@H]2S[C@@H](CO)C=C2F)c(=O)n1,>100 µM
COc1ccc2c(c1)CN(c1nn3c(C(C)C)nnc3c3ccccc13)CC2,23.4 µM
CC(C)(C)[Si](C)(C)O[C@H]1[C@H](CO)O[C@@H](n2ccc(N)nc2=O)C1(F)F,>100 µM